Measured values from several laboratories, pooled; numbers as filed in NIAID ChemDB.

Shared fields: target-level tests; organism: HIV-1; target: Protease; read-out: Ki

Blank or dashed fields: not listed here.

compound | strain | mutations | method | conditions | result
CCNC(=O)[C@@H](NC(=O)Cc1ccccc1)[C@@H]1N[C@@H](C(=O)NCCNC(=O)[C@@H]2N[C@@H]([C@H](NC(=O)Cc3ccccc3)C(=O)NCC)SC2(C)C)C(C)(C)S1 | RF | - | HPLC | - | 0.0001 µM
CNC(=O)[C@@H](NC(=O)[C@H](OCc1ccccc1)[C@H](O)[C@@H](O)[C@@H](OCc1ccccc1)C(=O)N[C@H](C(=O)NC)C(C)C)C(C)C | - | - | substrate cleavage | - | 0.0004 µM
O=C1N[C@H](Cc2c[nH]c3ccccc23)C(=O)N1CC(CCN1CCC(c2ccccc2)CC1)c1cccc(Cl)c1 | - | - | - | - | 0.027 µM
CC(C)[C@H](NC(=O)[C@@H](NC(=O)C(Cc1ccccc1)CP(=O)(O)C(Cc1ccccc1)NC(=O)[C@@H](NC(=O)[C@@H](NC(=O)OC(C)(C)C)C(C)C)C(C)C)C(C)C)C(N)=O | - | - | - | - | 0.0004 µM
CC(C)[C@H](NC(=O)[C@H](C)NC(=O)OCc1ccccc1)C(=O)N[C@@H](Cc1ccccc1)[C@H](O)CN1CCC[C@H]1C(=O)NC(C)(C)C | - | - | fluorescence | - | 0.499 µM
O=S1(=O)N(Cc2cccc(I)c2)[C@H](COc2ccccc2)[C@H](O)[C@@H](O)[C@@H](COc2ccccc2)N1Cc1cccc(I)c1 | - | - | - | - | 0.0125 µM
CCCCCCCCCCCCCCCC(=O)N[C@H](C(=O)N[C@H](C(=O)N[C@@H](CO)C(=O)N[C@@H](Cc1ccc(O)cc1)C(=O)N[C@@H](CCC(=O)O)C(=O)N[C@@H](CC(C)C)C(=O)O)C(C)C)[C@@H](C)O | - | - | - | - | 0.2 µM
O=C1N[C@H](Cc2csc3ccccc23)C(=O)N1CC(CCN1CCC(c2ccccc2)CC1)c1cccc(Cl)c1 | - | - | - | - | 0.16 µM
CNC(=O)[C@@H](NC(=O)[C@@H](C[C@H](O)[C@@H](OCc1ccccc1)C(=O)N[C@H](C(=O)NC)C(C)C)OCc1ccccc1)C(C)C | - | - | substrate cleavage | - | 0.53 µM
Cc1ccc(S(=O)(=O)N[C@@H](Cc2c[nH]c3ccccc23)C(=S)NCCCC[C@@H](C(=O)O)N(CC(C)C)S(=O)(=O)c2ccc(C)cc2)cc1 | - | - | FRET | - | 0.0048 µM
CC(C)[C@H](NC(=O)[C@H](C)NC(=O)OCc1ccccc1)C(=O)NC(Cc1ccccc1)C(=O)C(=O)N1CCC[C@H]1C(=O)NC(C)(C)C | - | - | fluorescence | - | 0.0025 µM
CC[C@H](C)[C@H](NC(=O)[C@@H](C[C@H](O)[C@H](CC1CCCCC1)NC(=O)OC(C)(C)C)C(C)C)C(=O)NCc1cccnc1 | - | - | HPLC | - | 0.07 µM
CC(C)C[C@H](NC(=O)[C@@H](NC(=O)CCCCCCCCCCCCCCC(=O)N[C@@H](CC(N)=O)C(=O)N[C@@H](Cc1ccccc1)C(=O)O)C(C)O)C(=O)N[C@@H](Cc1ccccc1)C(N)=O | - | - | - | - | 3 µM
CCN[C@H]1CO[C@@H]2OC[C@H](OC(=O)N[C@@H](Cc3ccccc3)[C@H](O)CN(CC(C)C)S(=O)(=O)c3ccc4nc(NC5CC5)sc4c3)[C@@H]21 | - | - | substrate cleavage / fluorescence | - | 0.0002 µM
Cc1cnc(C(=O)Nc2ccccc2C(=O)N[C@@H](Cc2ccccc2)[C@H](O)[C@H](O)[C@H](Cc2ccccc2)NC(=O)c2ccccc2NC(=O)c2cnc(C)cn2)cn1 | - | - | - | - | >10 µM
O=C(NCCO)[C@H](OCc1ccccc1)[C@H](O)[C@@H](O)[C@@H](OCc1ccccc1)C(=O)N[C@H]1c2ccccc2C[C@H]1O | - | - | fluorescence | - | 0.2 µM
CC(C)C[C@H](NC(=O)[C@@H](NC(=O)CCCCCCCCCCCCCCC(=O)N[C@@H](CC(N)=O)C(=O)N[C@@H](Cc1ccccc1)C(=O)O)C(C)O)C(=O)N[C@@H](Cc1ccccc1)C(N)=O | - | - | HPLC | - | 3 µM
CC(C)C[C@H](NC(=O)[C@@H](NC(=O)[C@H](C)NC(=O)OCc1ccccc1)C(C)C)[C@@H](O)[C@H](O)[C@H](CC(C)C)NC(=O)[C@@H](NC(=O)[C@H](C)NC(=O)OCc1ccccc1)C(C)C | - | - | fluorescence | - | 0.0065 µM
CC(C)C[C@H](NC(=O)[C@@H](NC(=O)CCCCCCCCCCCCCCC(=O)N[C@@H](CC(N)=O)C(=O)N[C@@H](Cc1cccc2ccccc12)C(=O)O)C(C)O)C(=O)N[C@H](C(N)=O)C1CCCCC1 | - | - | HPLC | - | 0.0652 µM
COc1ccc(S(=O)(=O)N(CC2CCCC2)C[C@@H](O)CN2C(=O)[C@@H](Cc3ccccc3)C[C@@H]2Cc2ccccc2)cc1 | - | - | - | - | 0.005 µM
CC(C)CNC(=O)[C@H](OCc1ccccc1)[C@H](O)[C@@H](O)[C@@H](OCc1ccccc1)C(=O)N[C@H]1c2ccccc2C[C@H]1O | - | - | fluorescence | - | 0.07 µM
CCN[C@H]1CO[C@@H]2OC[C@H](OC(=O)N[C@@H](Cc3cc(F)cc(F)c3)[C@H](O)CN(CC(C)C)S(=O)(=O)c3ccc4nc(NC5CC5)sc4c3)[C@@H]21 | - | - | substrate cleavage / fluorescence | - | 0.0002 µM
Cc1ccc(S(=O)(=O)N(CC(C)C)[C@@H](CCCCNC(=O)[C@H](CC2C=Nc3ccccc32)NC(=O)OC(C)(C)C)C(=O)O)cc1 | - | - | FRET | - | 0.0016 µM
CC(C)CN([C@H](CO)CCCCNC(=O)[C@H](Cc1ccc2ccccc2c1)NC(=O)CC(F)(F)F)S(=O)(=O)c1ccc(N)cc1 | NL4-3 | - | fluorescence | - | 0.0016 µM
C[C@H](NC(=O)OCc1ccccc1)C(=O)N[C@@H](CC(N)=O)C(=O)N[C@@H](Cc1ccccc1)[C@H](O)CN1C[C@H]2CCCC[C@H]2C[C@H]1C(=O)NC(C)(C)C | - | - | fluorescence | - | 0.0113 µM
CCC(c1ccccc1)c1c(O)cc(CCc2ccccc2)oc1=O | - | - | absorbance | - | 0.005 µM
O=C1NCC[C@@H](O)[C@@H](Cc2ccccc2)N1 | - | - | - | - | >12.5 µM
CC[C@H](C)[C@H](NC(=O)[C@H](Cc1ccccc1)C[C@H](O)[C@H](Cc1ccccc1)NC(=O)OC(C)(C)C)C(=O)NCc1ccccc1 | - | - | HPLC | - | 0.00071 µM
CC(C)[C@H](NC(=O)OCc1ccccc1)C(=O)N[C@@H](Cc1ccccc1)[C@H](O)[C@@H](C(=O)O)[C@H](Cc1ccccc1)NC(=O)OC(C)(C)C | - | - | - | - | 0.028 µM
CNC(=O)[C@@H](NC(=O)[C@H](OCc1ccccc1)[C@H](O)[C@@H](O)[C@@H](OCc1ccccc1)C(=O)N[C@H](C(=O)NC)C(C)C)C(C)C | - | - | fluorescence | - | 0.0006 µM
O=C1N(Cc2ccccc2)[C@H](CCc2ccccc2)[C@@H](O)[C@@H](Cc2ccccc2)N1Cc1ccccc1 | RF | - | HPLC | - | 0.97 µM
CC(C)(C)OC(=O)N[C@@H](Cc1ccccc1)[C@H](O)[C@H](O)[C@H](Cc1ccccc1)NC(=O)OC(C)(C)C | - | PR-R8Q | fluorescence | - | 0.037 µM
CC(C)[C@H](NC(=O)OCc1ccccc1)C(=O)N[C@@H](Cc1ccccc1)[C@@H](O)[C@H](CO)[C@H](Cc1ccccc1)NC(=O)[C@H](CC(N)=O)NC(=O)OCc1ccccc1 | - | - | - | - | 0.0011 µM
CC(C)[C@H](NC(=O)N(C)Cc1ccccn1)C(=O)N[C@@H](Cc1ccccc1)[C@H](O)[C@H](O)[C@H](Cc1ccccc1)NC(=O)[C@@H](NC(=O)N(C)Cc1ccccn1)C(C)C | - | PR-M46I | fluorescence | - | 0.00012 µM
CC[C@H](C)[C@H](NC(=O)[C@H](C(C)C)[C@@H](O)[C@H](O)[C@H](CC1CCCCC1)NC(=O)[C@H](Cc1cnc[nH]1)NC(=O)COc1cccc2ccccc12)C(=O)NCc1cccnc1 | - | - | - | - | <0.001 µM
CNC(=O)[C@@H](NC(=O)[C@H](OCc1ccccc1)[C@H](O)[C@@H](O)[C@@H](OCc1ccccc1)C(=O)N[C@H]1c2ccccc2C[C@H]1O)C(C)C | - | - | fluorescence | - | 0.0002 µM
O=C1N(Cc2ccccc2)CC[C@@H](O)[C@@H](Cc2ccccc2)N1Cc1ccccc1 | - | - | - | - | 1.8 µM
CC[C@H](C)[C@H](NC(=O)[C@@H](NC(=O)CCCCCCCCCCCCCCC(=O)N[C@@H](CC(N)=O)C(=O)N[C@@H](CC1CCCCC1)C(=O)O)C(C)O)C(=O)N[C@@H](Cc1ccccc1)C(N)=O | - | - | HPLC | - | 0.143 µM
Cc1cccc(-c2cc(O)c(Sc3ccccc3C(C)(C)C)c(=O)o2)c1 | - | - | HPLC | pH 4.7 | 0.003 µM
O=C(Nc1cccc(C(c2c(O)c3c(oc2=O)CCCCCC3)C2CC2)c1)Oc1ccccc1 | - | - | substrate cleavage | - | 0.66 µM
CC(C)[C@H](NC(=O)[C@H](C)NC(=O)OCc1ccccc1)C(=O)N[C@@H](Cc1ccccc1)[C@@H](O)C(=O)N1CCC[C@H]1C(=O)NC(C)(C)C | - | - | fluorescence | - | 0.308 µM
CC(C)C[C@H](NC(=O)[C@@H](NC(=O)CCCCCCCCCCCCCCC(=O)N[C@@H](Cc1ccc(N)cc1)C(=O)N[C@@H](Cc1ccccc1)C(=O)O)C(C)O)C(=O)N[C@@H](Cc1cc(I)c(Oc2cc(I)c(O)c(I)c2)c(I)c1)C(N)=O | - | - | HPLC | - | 0.0293 µM

Repeating the final 6 entries:

compound,strain,mutations,method,conditions,result
O=C1N(Cc2ccccc2)CC[C@@H](O)[C@@H](Cc2ccccc2)N1Cc1ccccc1,-,-,-,-,1.8 µM
CC[C@H](C)[C@H](NC(=O)[C@@H](NC(=O)CCCCCCCCCCCCCCC(=O)N[C@@H](CC(N)=O)C(=O)N[C@@H](CC1CCCCC1)C(=O)O)C(C)O)C(=O)N[C@@H](Cc1ccccc1)C(N)=O,-,-,HPLC,-,0.143 µM
Cc1cccc(-c2cc(O)c(Sc3ccccc3C(C)(C)C)c(=O)o2)c1,-,-,HPLC,pH 4.7,0.003 µM
O=C(Nc1cccc(C(c2c(O)c3c(oc2=O)CCCCCC3)C2CC2)c1)Oc1ccccc1,-,-,substrate cleavage,-,0.66 µM
CC(C)[C@H](NC(=O)[C@H](C)NC(=O)OCc1ccccc1)C(=O)N[C@@H](Cc1ccccc1)[C@@H](O)C(=O)N1CCC[C@H]1C(=O)NC(C)(C)C,-,-,fluorescence,-,0.308 µM
CC(C)C[C@H](NC(=O)[C@@H](NC(=O)CCCCCCCCCCCCCCC(=O)N[C@@H](Cc1ccc(N)cc1)C(=O)N[C@@H](Cc1ccccc1)C(=O)O)C(C)O)C(=O)N[C@@H](Cc1cc(I)c(Oc2cc(I)c(O)c(I)c2)c(I)c1)C(N)=O,-,-,HPLC,-,0.0293 µM

Lines come from different laboratories, so protocols vary.